Anti-infective test results gathered from many reports (values: NIAID ChemDB through PubChem).

All rows: tests in culture; organism: Mycobacterium avium intracellulare; read-out: MIC

Conditions beyond the fields shown may differ between rows.

| smiles | strain | value |
|---|---|---|
| CC[C@H]1OC(=O)[C@H](C)[C@@H](OC2C[C@@](C)(OC)[C@@H](O)[C@H](C)O2)[C@H](C)[C@@H](O[C@@H]2O[C@H](C)C[C@H](N(C)C)[C@H]2O)C(C)(OC)C[C@@H](C)/C(=N\OCCCOc2ccccc2)[C@H](C)[C@@H](O)[C@]1(C)O | 20066 (clarithromycin-susceptible) | 3.13 µg/mL |
| CC(=O)NC[C@H]1CN(c2ccc(N3CCN(c4ccc([N+](=O)[O-])s4)CC3)c(F)c2)C(=O)O1 | ATCC 13950 | 16 µg/mL |
| CO[C@H]1/C=C/O[C@@]2(C)Oc3c(C)c(O)c4c(O)c(c5c(c4c3C2=O)NC2(CCN(CC(C)C)CC2)N=5)=NC(=O)/C(C)=C\C=C\[C@H](C)[C@H](O)[C@@H](C)[C@@H](O)[C@@H](C)[C@H](OC(C)=O)[C@@H]1C | N-809 (HIV-) | 0.25 µg/mL |
| CCCCCCCCCCCCO/N=C1\[C@H](C)CC(C)(O)[C@H](O[C@@H]2O[C@H](C)C[C@H](N(C)C)[C@H]2O)[C@@H](C)[C@H](O[C@H]2C[C@@](C)(OC)[C@@H](OC(C)=O)[C@H](C)O2)[C@@H](C)C(=O)O[C@H](CC)[C@@](C)(O)[C@H](O)[C@H]1C | 20066 (clarithromycin-susceptible) | 6.25 µg/mL |
| CC[C@H]1OC(=O)[C@H](C)[C@@H](O[C@H]2C[C@@](C)(OC)[C@@H](OC(C)=O)[C@H](C)O2)[C@H](C)[C@@H](OC2O[C@H](C)C[C@H](N(C)C)[C@H]2OC(=O)NCCCCCCCCCCCCCCN(C)C)C(C)(O)C[C@@H](C)/C(=N\OCCCC2CCCCC2)[C@H](C)[C@@H](O)[C@]1(C)O | 20073 | 0.78 µg/mL |
| CC[C@H]1OC(=O)[C@H](C)[C@@H](O[C@H]2C[C@@](C)(OC)[C@@H](OC(C)=O)[C@H](C)O2)[C@H](C)[C@@H](O[C@@H]2O[C@H](C)C[C@H](N(C)C)[C@H]2O)C(C)(O)C[C@@H](C)/C(=N\OCC2CCCCC2)[C@H](C)[C@@H](O)[C@]1(C)O | 20066 (clarithromycin-susceptible) | 3.13 µg/mL |
| CC[C@H]1OC(=O)[C@H](C)[C@@H](O[C@H]2C[C@@](C)(OC)[C@@H](OC(C)=O)[C@H](C)O2)[C@H](C)[C@@H](OC2O[C@H](C)C[C@H](N(C)C)[C@H]2OC(N)=O)C(C)(O)C[C@@H](C)/C(=N\OCCCC2CCCCC2)[C@H](C)[C@@H](O)[C@]1(C)O | 20073 | 1.56 µg/mL |
| CN[C@@H]1[C@H](O[C@H]2[C@H](O[C@H]3[C@H](O)[C@@H](O)[C@H](N=C(N)N)[C@@H](O)[C@@H]3N=C(N)N)O[C@@H](C)[C@]2(O)C=O)O[C@@H](CO)[C@H](O)[C@H]1O | N-486 (HIV-) | 4 µg/mL |
| CC[C@H]1OC(=O)[C@H](C)[C@@H](O[C@H]2C[C@@](C)(OC)[C@@H](OC(C)=O)[C@H](C)O2)[C@H](C)[C@@H](O[C@@H]2O[C@H](C)C[C@H](N(C)C)[C@H]2OC(=O)NN2CCCCC2)C(C)(O)C[C@@H](C)/C(=N\OCCCC2CCCCC2)[C@H](C)[C@@H](O)[C@]1(C)O | 20066 (clarithromycin-susceptible) | 0.78 µg/mL |
| CC1(C)S[C@@H]2[C@H](NC(=O)C(C(=O)O)c3ccccc3)C(=O)N2[C@H]1C(=O)O | CIPT 140310021 | 25 µg/mL |
| CC[C@H]1OC(=O)[C@H](C)[C@@H](O[C@H]2C[C@@](C)(OC)[C@@H](OC(C)=O)[C@H](C)O2)[C@H](C)[C@@H](OC2O[C@H](C)C[C@H](N(C)C)[C@H]2OC(=O)NC)C(C)(O)C[C@@H](C)/C(=N\OCCCC2CCCCC2)[C@H](C)[C@@H](O)[C@]1(C)O | 20073 | 3.13 µg/mL |
| CC[C@H]1OC(=O)[C@H](C)[C@@H](O[C@H]2C[C@@](C)(OC)[C@@H](O)[C@H](C)O2)[C@H](C)[C@@H](O[C@@H]2O[C@H](C)C[C@H](N(C)C)[C@H]2O)[C@](C)(OC)C[C@@H](C)C(=O)[C@H](C)[C@@H](O)[C@]1(C)O | N-499 (HIV-) | 0.25 µg/mL |
| CO[C@H]1/C=C/O[C@@]2(C)Oc3c(C)c(O)c4c(O)c(c5c(c4c3C2=O)NC2(CCN(CC(C)C)CC2)N=5)=NC(=O)/C(C)=C\C=C\[C@H](C)[C@H](O)[C@@H](C)[C@@H](O)[C@@H](C)[C@H](OC(C)=O)[C@@H]1C | 1023 | 0.25 µg/mL |
| CCCCCCNNC(=O)O[C@H]1[C@H](O[C@@H]2[C@@H](C)[C@H](O[C@H]3C[C@@](C)(OC)[C@@H](OC(C)=O)[C@H](C)O3)[C@@H](C)C(=O)O[C@H](CC)[C@@](C)(O)[C@H](O)[C@@H](C)/C(=N/OCCCC3CCCCC3)[C@H](C)CC2(C)O)O[C@H](C)C[C@@H]1N(C)C | 20066 (clarithromycin-susceptible) | 1.56 µg/mL |
| NC[C@H]1O[C@H](O[C@H]2[C@H](O)[C@@H](O[C@H]3O[C@H](CO)[C@@H](O)[C@H](N)[C@H]3O)[C@H](N)C[C@@H]2N)[C@H](O)[C@@H](O)[C@@H]1O | CIPT 140310019 | 25 µg/mL |
| CC[C@H]1OC(=O)[C@H](C)[C@@H](O[C@H]2C[C@@](C)(OC)[C@@H](OC(C)=O)[C@H](C)O2)[C@H](C)[C@@H](O[C@@H]2O[C@H](C)C[C@H](N(C)C)[C@H]2O)C(C)(O)C[C@@H](C)/C(=N\OCc2ccccc2)[C@H](C)[C@@H](O)[C@]1(C)O | 20066 (clarithromycin-susceptible) | 3.13 µg/mL |
| CO[C@H]1/C=C/O[C@@]2(C)Oc3c(C)c(O)c4c(O)c(c5c(c4c3C2=O)NC2(CCN(CC(C)C)CC2)N=5)=NC(=O)/C(C)=C\C=C\[C@H](C)[C@H](O)[C@@H](C)[C@@H](O)[C@@H](C)[C@H](OC(C)=O)[C@@H]1C | CIPT 140310054 | 0.05 µg/mL |
| CC[C@H]1OC(=O)[C@H](C)[C@@H](OC(C)=O)[C@H](C)[C@@H](O[C@@H]2O[C@H](C)C[C@H](N(C)C)[C@H]2O)C(C)(O)C[C@@H](C)/C(=N\OCCCOc2ccccc2)[C@H](C)[C@@H](O)[C@]1(C)O | 20066 (clarithromycin-susceptible) | 50 µg/mL |
| CCNC(=O)[C@@H](NC(=O)Cc1ccccc1)[C@@H]1N[C@@H](C(=O)NCCNC(=O)[C@@H]2N[C@@H]([C@H](NC(=O)Cc3ccccc3)C(=O)NCC)SC2(C)C)C(C)(C)S1 | CIPT 140310021 | 25 µg/mL |
| NNC(=O)c1ccncc1 | N-499 (HIV-) | 2 µg/mL |
| CCCCCNC(=O)O[C@H]1C(O[C@@H]2[C@@H](C)[C@H](O[C@H]3C[C@@](C)(OC)[C@@H](OC(C)=O)[C@H](C)O3)[C@@H](C)C(=O)O[C@H](CC)[C@@](C)(O)[C@H](O)[C@@H](C)/C(=N/OCCCC3CCCCC3)[C@H](C)CC2(C)O)O[C@H](C)C[C@@H]1N(C)C | 20073 | 0.2 µg/mL |

2 of the rows above, restated:

smiles,strain,value
CC[C@H]1OC(=O)[C@H](C)[C@@H](O[C@H]2C[C@@](C)(OC)[C@@H](OC(C)=O)[C@H](C)O2)[C@H](C)[C@@H](OC2O[C@H](C)C[C@H](N(C)C)[C@H]2OC(N)=O)C(C)(O)C[C@@H](C)/C(=N\OCCCC2CCCCC2)[C@H](C)[C@@H](O)[C@]1(C)O,20073,1.56 µg/mL
CC[C@H]1OC(=O)[C@H](C)[C@@H](O[C@H]2C[C@@](C)(OC)[C@@H](OC(C)=O)[C@H](C)O2)[C@H](C)[C@@H](OC2O[C@H](C)C[C@H](N(C)C)[C@H]2OC(=O)NC)C(C)(O)C[C@@H](C)/C(=N\OCCCC2CCCCC2)[C@H](C)[C@@H](O)[C@]1(C)O,20073,3.13 µg/mL